A mixed list of measured activities; the numbers were collected in NIAID ChemDB.

All rows: host cell toxicity; cells: A549; read-out: CC50

CCn: concentration that lowers growth or viability of the cells by n%. Neighbouring rows are from separate reports. An empty or dashed field is not shown.

CC(C)CS[C@H]1C[C@@H](n2cnc3c(N)ncnc32)[C@H](O)[C@@H]1O ; result: >200 µg/mL
COc1cc(N(C(C)=O)C(C)CCCN2C(=O)CN(C(C)=O)C2(C)C)c2ncccc2c1 ; setting: 72 h ; result: >100 µg/mL
c1cc(N2CCN(c3ccc(C4=NCCN4)cc3)CC2)ccc1C1=NCCN1 ; result: 1070 µg/mL
C=CCSc1n[nH]c(-c2ccc(C(F)(F)F)cc2)n1 ; result: >100 µg/mL
Cl.Cl.NC(=NC1CCCCCCC1)c1ccc(N2CCN(c3ccc(C(N)=NC4CCCCCCC4)cc3)CC2)cc1 ; result: 1.95 µg/mL
C=CCSc1n[nH]c(-c2ccc([N+](=O)[O-])c(C)c2)n1 ; result: >100 µg/mL
CCCCCCCCCCN=C(N)c1ccc(N2CCN(c3ccc(C(N)=NCCCCCCCCCC)cc3)CC2)cc1 ; result: >71 µg/mL
CCOC(=O)C(Cc1ccccc1)NOP(=O)(CCC(=O)N1C[C@@H](n2cnc3c(=O)[nH]c(N)nc32)[C@H](OC[C@@H](O)P(=O)(ONC(Cc2ccccc2)C(=O)OCC)ONC(Cc2ccccc2)C(=O)OCC)C1)ONC(Cc1ccccc1)C(=O)OCC ; result: 132 µM
CCCC(=O)Nc1nc(=O)n([C@@H]2C[C@H](CO)[C@@H](O)C2)cc1COC ; result: >2933 µM
C=CCSc1n[nH]c(-c2ccco2)n1 ; result: >100 µg/mL
CCCCCN=C(N)c1ccc(N2CCN(c3ccc(C(N)=NCCCCC)cc3)CC2)cc1 ; result: >0.14 µg/mL
C#CCSc1n[nH]c(-c2ccc(Cl)cc2C)n1 ; result: >100 µg/mL
CC(C)CCN=C(N)c1ccc(N2CCN(c3ccc(C(N)=NCCC(C)C)cc3)CC2)cc1 ; result: >0.9 µg/mL
CCSc1n[nH]c(-c2ccc([N+](=O)[O-])c(C)c2)n1 ; result: >100 µg/mL
N/C(=N\O)c1ccc(N2CCN(c3ccc(/C(N)=N/O)cc3)CC2)cc1 ; result: >181 µg/mL
N=C(N)c1ccc(OCCCCCOc2ccc(C(=N)N)cc2)cc1 ; result: 18.2 µg/mL

A second listing of 2 rows from above:

| compound | setting | result |
|---|---|---|
| N=C(N)c1ccc(OCCCCCOc2ccc(C(=N)N)cc2)cc1 |  | 18.2 µg/mL |
| C=CCSc1n[nH]c(-c2ccc([N+](=O)[O-])c(C)c2)n1 |  | >100 µg/mL |